Results taken from US5641633.
The exact form of at least one protein or probe is not confirmed.

By UniProt entry, the sequences of proteins in these tests, tags left out. Residues count along the entry.
UniProt P00582, 324-928: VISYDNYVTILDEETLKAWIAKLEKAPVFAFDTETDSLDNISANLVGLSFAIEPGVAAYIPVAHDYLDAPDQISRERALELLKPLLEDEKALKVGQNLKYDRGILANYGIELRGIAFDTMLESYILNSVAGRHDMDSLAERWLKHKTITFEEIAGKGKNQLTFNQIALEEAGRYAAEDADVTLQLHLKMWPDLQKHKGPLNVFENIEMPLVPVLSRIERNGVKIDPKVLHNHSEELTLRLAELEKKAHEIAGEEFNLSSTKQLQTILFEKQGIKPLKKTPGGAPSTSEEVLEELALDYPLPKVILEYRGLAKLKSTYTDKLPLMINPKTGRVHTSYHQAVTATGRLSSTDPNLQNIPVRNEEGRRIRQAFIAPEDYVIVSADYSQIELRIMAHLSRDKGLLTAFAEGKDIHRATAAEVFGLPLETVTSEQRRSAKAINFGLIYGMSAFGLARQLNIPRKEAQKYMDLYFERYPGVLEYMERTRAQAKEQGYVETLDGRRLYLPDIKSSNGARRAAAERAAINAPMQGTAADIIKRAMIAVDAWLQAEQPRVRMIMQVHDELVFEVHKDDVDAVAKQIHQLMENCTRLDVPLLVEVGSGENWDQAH

Target: Klenow fragment of DNA polymerase I, exonuclease deficient (Escherichia coli) (UniProt P00582)
Test: FP
Conditions: 154 mP after vs 114 mP before Klenow exo- at 1000 genomes, 37 C; no-target control 60 vs 57 mP; Bca and BsoBI also present; EDTA; purified recombinant protein; protein details: United States Biochemical; label: 5' …

**Q.** Does “ATCCGTATGGTGGATAACGTCTTTCA (double strand)” bind?
**A.** Result: binds
